{"source": "PubChem BioAssay AID624099 (ICCB-Longwood, 2012)", "assay": "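Host factors E2 relies on to silence an HPV18 LCR reporter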 (primary screen)", "cell system": "human C33A cervical carcinoma cells (HPV-negative) stably expressing BPV1 E2 and an HPV18 LCR luciferase reporter", "reagent": "siRNA pool against human genes, 40 nM", "time to read-out": "72 h", "measured": "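Per-well luciferase luminescence, z-scored on each plate against the plate mean and SD with control wells left out, then averaged across three replicate plates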", "reading the numbers": "mean z-score and z-score: higher = stronger reporter signal, weaker E2 silencing", "call rule": "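Hit if mean z-score reaches 2 and two or more of three replicate z-scores also reach 2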", "note": "This is a random part of about 21,000 reagents tested. Of all reagents, 497 (2.4%) are marked active. 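Higher z means weaker E2 silencing; only reporter increases were scored, and knock-downs that hurt cell survival may mask genuine repressor factors.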 A number with no mark means an inactive call."}
{"gene symbol": "CCDC71 (coiled-coil domain containing 71)", "mean z-score": 0.56, "z-score, replicate A": 0.6, "z-score, replicate B": 0.58, "z-score, replicate C": 0.49}
{"gene symbol": "CFAP53 (cilia and flagella associated protein 53)", "mean z-score": -0.19, "z-score, replicate A": -0.09, "z-score, replicate B": -0.32, "z-score, replicate C": -0.16}
{"gene symbol": "SAA4 (serum amyloid A4, constitutive)", "mean z-score": -0.06, "z-score, replicate A": -0.41, "z-score, replicate B": 0.14, "z-score, replicate C": 0.1}
{"gene symbol": "RPN1 (ribophorin I)", "mean z-score": 0.12, "z-score, replicate A": -0.23, "z-score, replicate B": 0.31, "z-score, replicate C": 0.28}
{"gene symbol": "ACOX1 (acyl-CoA oxidase 1)", "mean z-score": 0.78, "z-score, replicate A": 0.6, "z-score, replicate B": 0.74, "z-score, replicate C": 1}

Continued, starting with the last 2 of the part before.
{"gene symbol": "RPN1 (ribophorin I)", "mean z-score": 0.12, "z-score, replicate A": -0.23, "z-score, replicate B": 0.31, "z-score, replicate C": 0.28}
{"gene symbol": "ACOX1 (acyl-CoA oxidase 1)", "mean z-score": 0.78, "z-score, replicate A": 0.6, "z-score, replicate B": 0.74, "z-score, replicate C": 1}
{"gene symbol": "GIPC2 (GIPC PDZ domain containing family member 2)", "mean z-score": 1.57, "z-score, replicate A": 1.77, "z-score, replicate B": 1.59, "z-score, replicate C": 1.35}
{"gene symbol": "IGFALS", "mean z-score": -0.38, "z-score, replicate A": -0.21, "z-score, replicate B": -0.5, "z-score, replicate C": -0.44}
{"gene symbol": "DGKH (diacylglycerol kinase eta)", "mean z-score": 0.99, "z-score, replicate A": 1.05, "z-score, replicate B": 1.03, "z-score, replicate C": 0.89}
{"gene symbol": "LINC03034 (long independently transcribed non-coding RNA 3034)", "mean z-score": 0.49, "z-score, replicate A": 0.23, "z-score, replicate B": 0.43, "z-score, replicate C": 0.8}
{"gene symbol": "MYF6 (myogenic factor 6)", "mean z-score": -0.87, "z-score, replicate A": -0.85, "z-score, replicate B": -0.79, "z-score, replicate C": -0.96}
{"gene symbol": "MRGPRF (MAS related GPR family member F)", "mean z-score": 0.16, "z-score, replicate A": 0.07, "z-score, replicate B": -0.29, "z-score, replicate C": 0.71}
{"gene symbol": "DORIP1 (dopamine receptor interacting protein 1)", "mean z-score": 0.04, "z-score, replicate A": 0.12, "z-score, replicate B": 0.19, "z-score, replicate C": -0.2}
{"gene symbol": "ATP13A3 (ATPase 13A3)", "mean z-score": -1.25, "z-score, replicate A": -0.95, "z-score, replicate B": -1.46, "z-score, replicate C": -1.33}
{"gene symbol": "ZPR1 (ZPR1 zinc finger)", "mean z-score": 0.46, "z-score, replicate A": 0.51, "z-score, replicate B": 0.63, "z-score, replicate C": 0.24}
